# Tested on: gram-positive and gram-negative pathogens
# Test: Phenol-coefficient type assay, all pathogens tested (Tables 1 and 2)
# Format: cell-based
# Conditions: cultures held 72 hours
substance,measurement,value
d-limonene,emergence of resistance (mutagenic or plasmid transposon),no mutagenic or plasmid transposon was noted
